A mixed list of measured activities; the numbers were collected in NIAID ChemDB.

All rows: whole-cell or culture tests; agent: Mycobacterium tuberculosis

Blank or dashed fields: not listed here. Percent inhibition refers to the dose given; in toxicity tests it is the harm to the cells. a–b is a range or a potency band. A number after MIC or MFC names an inhibition level or a share of isolates. ECn is the concentration giving n% inhibition of infection, replication or growth. MIC bound comes from a single tested concentration. Rows are shuffled and stem from different studies.

SMILES	tested at	method	conditions	endpoint	strain	mutations	cells	result
CCCCCNCCNC1(C)CN(CC(CC)CCCC)CN(CC(CC)CCCC)C1				MIC				50 µM
NC(N)=NCCC[C@H]1NC(=O)[C@@H](Cc2ccc(O)cc2)NC1=O	12.5 µg/mL	BACTEC		inhibition	H37Rv			15%
C=CCn1c(-c2ccccc2)cs/c1=N\N=C1/C(=O)Nc2ccc(Br)cc21.O				MIC	H37Rv			>12.5 µg/mL
COc1ccc(O)c2c(=O)c3c(OC)cc4c(c3oc12)[C@H]1C=CO[C@H]1O4	12.5 µg/mL	BACTEC		inhibition	H37Rv			-34%
CC/C(=C(\c1ccccc1)c1ccc(OCCN(C)C)cc1)c1ccccc1		resazurin		MIC	MDR			6.25–12.5 µg/mL
O=[N+]([O-])c1cccc(N/N=C/CCC/C=N/Nc2cccc([N+](=O)[O-])n2)n1		BACTEC		MIC bound	H37Rv			>12.5 µg/mL
Cc1c(OCC(F)(F)F)ccnc1CSc1nc2ccccc2[nH]1		turbidity	7 d	MIC90	H37Rv			1.02 µM
Cc1cc2c(cc1C)[n+](=O)c(C(=O)CBr)c(CBr)n2[O-]		BACTEC		EC50	H37Rv			>6.25 µg/mL
C[C@]1(COc2ccc(N3CCC(Oc4ccc(OC(F)(F)F)cc4)CC3)cc2)Cn2cc([N+](=O)[O-])nc2O1				MIC	H37Rv (SM-resistant)			0.012 µg/mL
NNC(=O)c1ccncc1		broth dilution		MIC	Harlingen			0.03 µg/mL
COc1ccc(C2C3=C(CCC(CN(C)C)C3=O)OC3=C2C(=O)C(CN(C)C)CC3)cc1	12.5 µg/mL	BACTEC		inhibition	H37Rv			-4%
CO[C@@H]1C/C=C\C=C\C[C@H](C)[C@@H](O)C[C@@H](O)[C@H](C)[C@H](O)CC(=O)O[C@H]([C@H](C)[C@H](O)/C=C(\C)CC/C=C/C=C/CC(O)CC(C)CCC(=O)O)C[C@H](O)CCC1		resazurin / absorbance		MIC	CHUV80045776	katG mutant isoniazid resistant		1.7 µg/mL
O=C1CC(c2ccccc2)Oc2cc(Br)ccc21	12.5 µg/mL			inhibition	H37Rv			15%
O=c1oc2ccc(F)cc2c(=O)n1-c1ccc(Br)cc1				MIC	CNCTC MY331/88			8 µM
COc1ccc(CN=C2NC(=O)/C(=C/c3c(Cl)cccc3Cl)N2)cc1				MIC	H37Rv			>12.5 µg/mL
COc1ccc(OCc2c(C(C)=O)[n+](=O)c3ccccc3n2[O-])cc1	6.25 µg/mL	BACTEC		inhibition	H37Rv		VERO	100%
CC(=O)NC[C@H]1CN(c2ccc(N3CCOCC3)c(F)c2)C(=O)O1		resazurin		MIC	Clinical isolate 309	INH RIF resistant		0.5 µg/mL
COc1cc2c3c(c1OC)-c1cc4c(cc1CC3N(C=O)CC2)OCO4		resazurin		MIC	H37RvIr			>50 µg/mL
Cc1ccc(-n2c(=O)oc3cc(C)ccc3c2=O)cc1				MIC	CNCTC MY331/88			62 µM
CO[C@H]1/C=C/O[C@@]2(C)Oc3c(C)c(O)c4c(O)c(c(/C=N/N5CCN(C6CCCC6)CC5)c(O)c4c3C2=O)NC(=O)/C(C)=C\C=C\[C@H](C)[C@H](O)[C@@H](C)[C@@H](O)[C@@H](C)[C@H](O)[C@@H]1C				MIC	Atencio			0.06 µg/mL
Cc1ccc2c(c1)[n+](=O)c(C(=O)c1ccccc1)c(C)n2[O-]		BACTEC		EC50	H37Rv		VERO	>6.25 µg/mL
CC1(C)[C@H]2CC[C@@H](CNCCNC(c3ccccc3)c3ccccc3)[C@@H]1C2				MIC				25 µM
O=C1NC(=Nc2ccccc2Cl)N/C1=C\c1ccccc1Cl	12.5 µg/mL			inhibition	H37Rv			79%
COc1ccc(C2CC(=O)c3c(OC)cc(OC)cc3O2)cc1	12.5 µg/mL			inhibition				12%
CC(C)c1ccc2c(c1)CC[C@H]1[C@](C)(CNCCNCC(O)c3ccccc3)CCC[C@]21C				MIC				12.5 µM
O=C1NC(=NCc2ccccc2)N/C1=C\c1ccccc1Cl				MIC	H37Rv			>12.5 µg/mL
O=C(CSc1nnc(-c2ccccn2)s1)N/N=c1/scc(-c2ccccc2)n1-c1cccc([N+](=O)[O-])c1				MIC	H37Rv			>80 µg/mL
CCCCn1c(C)c(C(=O)O)s/c1=N\N=C1/C(=O)Nc2ccccc21				MIC	H37Rv			>12.5 µg/mL
O=[n+]1ccn([O-])c2ccccc21		BACTEC		MIC	H37Rv			≥12.5 µg/mL
CN[C@@H]1[C@H](O[C@H]2[C@H](O[C@H]3[C@H](O)[C@@H](O)[C@H](N=C(N)N)[C@@H](O)[C@@H]3N=C(N)N)O[C@@H](C)[C@]2(O)C=O)O[C@@H](CO)[C@H](O)[C@H]1O		broth dilution		MIC	H37Rv Beijing			0.125–0.25 µg/mL
CC(=O)c1c(C)n([O-])c2cc(C)c(C)cc2[n+]1=O		BACTEC		MIC	H37Rv		VERO	6.25 µg/mL
CCc1cc(C(N)=S)ccn1				MBC	1620-6			5 µg/mL
Cc1ccc2oc(=O)n(-c3ccc(Cl)c(Cl)c3)c(=O)c2c1				MIC	CNCTC MY331/88			16 µM
C[C@@H]1CC[C@H]2O[C@]23C(=O)O[C@H]2OC(C)(C)[C@H]([C@@H]2O)[C@@]13C		BACTEC		MIC bound	H37Rv			>12.5 µg/mL
COc1ccc(/C=C/C(=O)c2ccc([N+](=O)[O-])cc2)cc1	12.5 µg/mL			inhibition				62%
CC(=O)c1c(CN2CCN(c3ccc([N+](=O)[O-])cc3)CC2)n([O-])c2ccccc2[n+]1=O		BACTEC		EC50	H37Rv			>6.25 µg/mL
CN(C)C(=O)c1ccc(N=Nc2c(N)c(N=Nc3ccc(-c4ccc(N=Nc5ccc(O)c(C(=O)O)c5)cc4)cc3)cc(S(=O)(=O)O)c2N)cc1	12.5 µg/mL	BACTEC		inhibition	H37Rv			8%
CC(=O)c1c(COc2ccccc2)n([O-])c2ccccc2[n+]1=O		BACTEC		EC50	H37Rv		VERO	<6.25 µg/mL
CC1S/C(=N/N=C2\C(=O)Nc3ccc(Br)cc32)N(c2ccc(Cl)cc2)C1=O				EC50	H37Rv			<12 µg/mL
NNC(=O)c1ccncc1				MIC	Isolate 2237			0.125 µg/mL
Cc1cc(NCCCCCCCNc2cc(C)nc3cc(N(C)C)ccc23)c2ccc(N(C)C)cc2n1		BACTEC		MIC bound	H37Rv			>12.5 µg/mL
O=C1NC(Nc2ccc(Cl)cc2)=N/C1=C\c1ccccc1Cl				MIC	H37Rv			<12.5 µg/mL
OC(c1cc2ccc(C(F)(F)F)cc2c2cc(C(F)(F)F)ccc12)C1CCCCN1				MIC bound	H37Rv			<6.25 µg/mL
CO[C@H]1/C=C/O[C@@]2(C)Oc3c(C)c(O)c4c(O)c(c5c(c4c3C2=O)NC2(CCN(CC(C)C)CC2)N=5)=NC(=O)/C(C)=C\C=C\[C@H](C)[C@H](O)[C@@H](C)[C@@H](O)[C@@H](C)[C@H](OC(C)=O)[C@@H]1C				MIC	61 strains			0.015 µg/mL
COC(=O)C1c2cc3c(cc2C(OC2OC(C)C(OC)C(C)(OC)C2OC)CC1(C)O)C(=O)c1c(O)cc2c(c1C3=O)OC1OC2(C)C(O)C([N+](C)(C)[O-])C1O	12.8 µg/mL	BACTEC		inhibition	H37Rv			94%
COc1ccc(CNCCNC[C@]2(C)CCC[C@]3(C)c4ccc(C(C)C)cc4CC[C@@H]23)c(OC)c1				MIC				25 µM
Cc1c(C(=O)O)s/c(=N\N=C2/C(=O)Nc3ccccc32)n1-c1ccc(Cl)cc1.O				MIC	H37Rv			>12.5 µg/mL
O=C(CSc1nnc(-c2ccccn2)s1)N/N=c1/scc(-c2ccccc2)n1-c1ccc(Br)cc1				MIC	Clinical isolate 190			40 µg/mL
CC(CNCCc1ccccc1F)NCCC1=CCCCC1				MIC				50 µM
O=C1NC(=NCc2ccc(Cl)cc2)N/C1=C\c1c(Cl)cccc1Cl				MIC	H37Rv			>12.5 µg/mL
CC(=O)OC[C@H]1O[C@@H](Oc2cc(OC(C)=O)c3c(=O)cc(-c4ccc(OC(C)=O)cc4)oc3c2C2C(=O)c3c(OC(C)=O)cc(OC(C)=O)cc3OC2c2ccc(OC(C)=O)cc2)[C@H](OC(C)=O)[C@@H](OC(C)=O)[C@@H]1OC(C)=O	12.5 µg/mL			inhibition	H37Rv			0%
CC(=O)c1c(C)n([O-])c2ccc(Cl)cc2[n+]1=O		BACTEC		MIC	H37Rv		VERO	0.78 µg/mL
C[N+]1(Cc2ccccc2)C2CCC1C(=O)N(Cc1ccccc1)C2=O	12.5 µg/mL	BACTEC		inhibition	H37Rv			-22%
C=CCN=C(N=Nc1c(O)[nH]c2ccc(Br)cc12)SCC(=O)c1ccc(Br)cc1				MIC	H37Rv			12.5 µg/mL
C[C@H](NCCNCC(c1ccccc1)c1ccccc1)[C@H](O)c1ccc(O)c(O)c1				MIC				3.13 µM
C=C1C(=O)O[C@H]2C[C@@]3(C)OC(=CC3=O)/C(C)=C\[C@@H](OC(=O)C3(C)OC3C)C12		BACTEC		MIC bound	H37Rv			>12.5 µg/mL
O=C(CSc1nnc(-c2ccccn2)s1)N/N=c1/scc(-c2ccccc2Br)n1-c1ccccc1				MIC	Clinical isolate 190			>80 µg/mL
C=CCNC(=S)N=Nc1c(O)[nH]c2ccccc12				MIC	H37Rv			>12.5 µg/mL
COc1ccc(/C(C#N)=C2C=C/C(=N\O)C(C)=C\2Cl)cc1		BACTEC		MIC	H37Rv			12.5 µg/mL
O=[N+]([O-])C1=CN2C[C@H](OCc3ccc(OC(F)(F)F)cc3)COC2N1		broth dilution		MIC	wtH37Rv			0.8 µM
OC1(CNCCNCCCCc2ccccc2)CCCCC1				MIC				25 µM
COc1ccc2cc([N+](=O)[O-])c3ccc(=O)oc3c2c1		resazurin		MIC	H37RvSr			25 µg/mL
CC1COc2c(N3CCN(C)CC3)c(F)cc3c(=O)c(C(=O)O)cn1c23		broth dilution		MIC	STR-resistant (ATCC 35820)			0.5 µg/mL
O=C1CSC(=Nc2ccccc2)N1c1ncccn1	12.5 µg/mL	BACTEC		inhibition	H37Rv			0%
Cc1ccc2c(=O)n(-c3ccc(Br)cc3)c(=O)oc2c1				MIC	CNCTC MY331/88			16 µM
O=c1c2c(c(=O)c(=O)c1=O)Nc1ccccc1N2	12.5 µg/mL	BACTEC		inhibition	H37Rv			94%
COc1ccc(CNCCNCc2ccccc2Cl)c(OC)c1				MIC				50 µM
CC(=O)Nc1ccc(/C=C(\NC(=O)c2ccccc2)C(=O)NNS(=O)(=O)c2ccc(C)cc2)cc1		BACTEC		MIC bound	H37Rv			>12.5 µg/mL
NNC(=O)c1ccncc1				MIC	Isolate HN1984 (katG S315N mutation)			>256 µg/mL
Cn1cc(NC(=O)c2cc(NC(=O)CCCCCCC(=O)Nc3cc(C(=O)Nc4cc(C(=O)NCCC(N)=[NH2+])n(C)c4)n(C)c3)cn2C)cc1C(=O)NCCC(N)=[NH2+]				MIC	H37Rv		VERO	0.1 µg/mL
O=C(CSc1nnc(-c2ccccn2)s1)N/N=c1/scc(-c2ccccc2)n1-c1ccccc1Br				MIC	Clinical isolate 331			>80 µg/mL
CC(=O)NC1C(Sc2ncn(C3OC(CO)C(O)C(O)C3NC(C)=O)n2)OC(CO)C(O)C1O	6.25 µg/mL	resazurin		inhibition	H37Rv			-3%
O=C(CSc1nnc(-c2ccccn2)s1)N/N=c1/scc(-c2cccc([N+](=O)[O-])c2)n1-c1ccccc1				MIC	H37Rv			40 µg/mL
COC(=O)[C@@H]1[C@H](O)[C@H](C)C(O)[C@H](C)/C=C\C=C(/C)C(=O)Nc2c(C)c(OC(C)=O)c3c(c2O)C(=O)C(C)=C2OCOC(=C23)/C(C)=C/[C@@](C)(O)[C@H](O)[C@@H](C)[C@H]1OC(C)=O				MIC	PZA-R			3.1 µg/mL
COc1ccccc1CCNCCNC(c1ccccc1)c1ccccc1				MIC				12.5 µM
Cc1cccc2oc3c(CC(=O)O)cccc3c(=O)c12	12.5 µg/mL	BACTEC		inhibition	H37Rv			0%
CCCCCCCCS(=O)(=O)CC(N)=O				MIC	401296			≤25 µg/mL

A second listing of 4 rows from above:

SMILES,tested at,method,conditions,endpoint,strain,mutations,cells,result
O=C(CSc1nnc(-c2ccccn2)s1)N/N=c1/scc(-c2cccc([N+](=O)[O-])c2)n1-c1ccccc1,,,,MIC,H37Rv,,,40 µg/mL
Cc1ccc(-n2c(=O)oc3cc(C)ccc3c2=O)cc1,,,,MIC,CNCTC MY331/88,,,62 µM
C[C@@H]1CC[C@H]2O[C@]23C(=O)O[C@H]2OC(C)(C)[C@H]([C@@H]2O)[C@@]13C,,BACTEC,,MIC bound,H37Rv,,,>12.5 µg/mL
COC(=O)C1c2cc3c(cc2C(OC2OC(C)C(OC)C(C)(OC)C2OC)CC1(C)O)C(=O)c1c(O)cc2c(c1C3=O)OC1OC2(C)C(O)C([N+](C)(C)[O-])C1O,12.8 µg/mL,BACTEC,,inhibition,H37Rv,,,94%